# From US20060183202A1 (priority 2003, published 2006)
# Amino acid sequences for entries named in this document (tags omitted). A change or cut given only in a name is not applied to a line headed by its entry.
# UniProt Q9ZQ97: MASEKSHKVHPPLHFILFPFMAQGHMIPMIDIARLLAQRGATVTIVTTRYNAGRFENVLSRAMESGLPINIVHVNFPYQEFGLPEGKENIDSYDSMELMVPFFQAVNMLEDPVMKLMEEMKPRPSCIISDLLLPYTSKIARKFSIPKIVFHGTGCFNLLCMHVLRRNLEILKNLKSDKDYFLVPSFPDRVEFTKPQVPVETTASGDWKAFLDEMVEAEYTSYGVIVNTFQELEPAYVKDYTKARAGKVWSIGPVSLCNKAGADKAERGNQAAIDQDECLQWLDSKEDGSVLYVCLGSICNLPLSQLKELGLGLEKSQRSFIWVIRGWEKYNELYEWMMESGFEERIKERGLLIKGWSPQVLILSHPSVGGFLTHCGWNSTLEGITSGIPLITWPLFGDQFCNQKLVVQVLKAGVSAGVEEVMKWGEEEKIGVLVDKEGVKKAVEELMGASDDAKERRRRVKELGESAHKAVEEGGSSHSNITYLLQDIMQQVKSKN
# Target: UGT73C4 (Arabidopsis thaliana, UniProt Q9ZQ97)
# Conditions: yeast YZGA515, YPD plates with increasing toxin concentrations
substance,measurement,value
T-2 toxin,resistance to the toxin conferred by UGT73C4 expression (detoxification),failed to confer resistance
